Conditions: in vivo

With Ivermectin as the substance, how does the “highest concentration achievable in the lungs” value read?
The value was 573.1 ng/mL.

And the “highest concentration with lung accumulation” value?
The value was “≈ 410 ng/mL”.

Source: patent publication US20220105119A1, “DELIVERY OF AEROSOLIZED MICROMOLAR COMPOSITION CONCENTRATIONS” (Amcyte Pharma Inc., priority 2020, published 2022)
